Results of unrelated studies side by side (data: NIAID ChemDB).

All rows: whole-cell or culture tests; agent: Mycobacterium tuberculosis

An empty or dashed field is not shown. Inhibition is in % at the dose shown (toxicity tests: loss of growth or viability). MIC bound: limit read from a one-dose screen. ECn: concentration that inhibits the pathogen or its effect by n%. Lines come from different laboratories, so protocols vary.

compound,strain,endpoint,read by,setting,cell line,dose,result
NC(=O)/C(N=Nc1ccccc1)=N/Nc1ccccc1,H37Rv,MIC,BACTEC,,,,≥12.5 µg/mL
NNC(=O)c1ccncc1,H37Rv,MIC,resazurin,,,,0.02 µM
Cc1ccc2c(c1)c1c3n2CCN(C(=S)Nc2ccccc2)C3CCC1,H37Rv,MIC,,,,,1000 µg/mL
CCCCCCCCCCOc1nc(N)nc2c1ncn2CC(=O)N[C@@H](Cc1ccccc1)C(=O)OCC,H37Rv,inhibition,BACTEC,,,6.25 µg/mL,0%
CCCCN(C(=O)c1ccccc1)C1CCC(=O)c2[nH]c3ccccc3c21,H37Rv,MIC bound,resazurin,,,,>6.25 µg/mL
C=CCN=C(N=Nc1c(O)[nH]c2ccccc12)SCC(=O)c1ccc(Br)cc1,H37Rv,EC50,,,,,<12 µg/mL
COc1cc(Cc2cnc(N)nc2N)cc(OC)c1OC,ATCC 27294,inhibition,BACTEC,,,76 µg/mL,22%
C[C@H]1COC2(CCN(c3nc(=O)c4cc(C(F)(F)F)cc([N+](=O)[O-])c4s3)CC2)O1,H37Rv,MIC,resazurin / fluorescence,,,,<0.02 µg/mL
Cc1nc2scc(-c3ccco3)c2c(=O)n1NC(=O)c1cccs1,CNCTC MY331/88,MIC,,,,,46 µM
CC(C)=CCC/C(C)=C/CNC(=O)CNC(=O)[C@]12C3CC4C5C3C[C@@]1(C(=O)NCC(=O)NC/C=C(\C)CCC=C(C)C)C5C42,H37Rv,MIC,BACTEC,,,,>50 µM
CC(CCC(=O)OCc1cn(CC2OC(n3cnc4c(N)ncnc43)[C@@H]3OC(C)(C)O[C@H]23)nn1)[C@H]1CCC2C3C(C[C@H](O)[C@@]21C)[C@@]1(C)CC[C@@H](O)CC1C[C@H]3O,H37Rv,MIC,resazurin,,,,8.02 µM
Cc1ccc2c(c1)c1c3n2CCN(CC(O)CNCCCN(C)C)C3CCC1,H37Rv,MIC,,,,,64 µg/mL
O=C(CSc1nc2ccccc2[nH]1)NCCO,H37Rv,MIC bound,BACTEC,,,,>12.5 µg/mL
Cc1ccc(Oc2nc(Cl)nc3nc[nH]c23)cc1,H37Rv,inhibition,BACTEC,,,6.25 µg/mL,0%
Cc1ccccc1NC(=O)C1C2C=CC(O2)C1C(=O)O,H37Rv,MIC bound,BACTEC,,,,>12.5 µg/mL
Cc1ccc2c(c1)c1c3n2CCN(CC(O)CNC2CCCCC2)C3CCC1,H37Rv,MIC,,,,,4 µg/mL
CC(O)CN1CC(C)N(CC(C)O)CC1C,H37Rv,inhibition,BACTEC,,,12.8 µg/mL,22%
S=C(Nc1cc(Cl)ccn1)Nc1ncc(C2CCC2)o1,H37Rv,MIC,agar,,,,0.64 µM
Cc1ccc2c(c1)c1c3n2CCNC3CCC1,ATCC 607,MIC,,,,,32 µg/mL
COc1ccc2c(Cc3ccc(Cl)cc3)c3[n+](cc2c1OC)CCc1cc2c(cc1-3)OCO2,H37Rv,MIC,broth dilution / turbidity,,,,4 µg/mL
Cc1cnc(NC(=S)Nc2ncc(C3CCC3)o2)cc1C,H37Rv,MIC,agar,,,,0.62 µM
COc1ccc2oc3cc(NCCN(C)C)ccc3c(=O)c2c1,H37Rv,inhibition,BACTEC,,,12.5 µg/mL,52%
CC(CCC(=O)N[C@@H](Cc1ccccc1)C(=O)OCc1cn(CC2OC(n3cnc4c(N)ncnc43)[C@@H]3OC(C)(C)O[C@H]23)nn1)[C@H]1CCC2C3C(C[C@H](O)[C@@]21C)[C@@]1(C)CC[C@@H](O)CC1C[C@H]3O,H37Rv,MIC,resazurin,,,,6.74 µM
O=C(/C=C/c1ccccc1Cl)c1ccccc1,H37Rv,MIC,MTT,7 d,,,32 µg/mL
COc1ccc2c(C)cc(N/N=C/c3cccc(C)n3)nc2c1,H37Rv,inhibition,BACTEC,,,12.5 µg/mL,100%
Cc1ccc(Oc2nc(N)nc3nc[nH]c23)cc1,H37Rv,inhibition,BACTEC,,,6.25 µg/mL,0%
C[C@@H]1[C@@H](NC(=O)c2cc3c(F)cc(F)cc3[nH]2)C[C@H]2C[C@@H]1C2(C)C,V4207,MIC,resazurin / fluorescence,,,,0.0078 µM
[2H]C([2H])([2H])OC(=O)N/C=C/CCCc1cc(O)c(C(=O)/C(C)=C/c2cnc(Oc3ccc(F)cc3)s2)c(=O)o1,H37Rv,MIC,fluorescence,,,,0.4 µg/mL
CC(CCC(=O)N[C@@H](Cc1ccccc1)C(=O)OCc1cn(CC2OC(n3ccc(=O)[nH]c3=O)[C@@H]3OC(C)(C)O[C@H]23)nn1)[C@H]1CCC2C3C(C[C@H](O)[C@@]21C)[C@@]1(C)CC[C@@H](O)CC1C[C@H]3O,H37Rv,MIC,resazurin,,,,13.84 µM
O=C(/C=C/c1ccc(F)cc1)c1ccc(O)cc1,H37Rv,MIC,MTT,,,,32 µg/mL
Nc1nc(Oc2ccccc2)c2[nH]cnc2n1,H37Rv,inhibition,BACTEC,,,6.25 µg/mL,0%
CN(C)c1ccc(NC(=S)Nc2ncc(C3CCC3)o2)cc1,H37Rv,MIC,agar,,,,5.56 µM
COc1cc(C=CC(=NNC(N)=S)c2sc(NNC(C)=O)nc2C)ccc1O,H37Rv,inhibition,resazurin,,,6.25 µg/mL,35%
C=CCn1c(-c2ccccc2)cs/c1=N\N=C1/C(=O)Nc2ccc(Br)cc21.O,H37Rv,inhibition,,,,12 µg/mL,19%
CC(C)=O.CC(C)C1(NC(=O)C2C=C3c4cccc5[nH]cc(c45)CC3N(C)C2)OC2(O)C3CCCN3C(=O)C(Cc3ccccc3)N2C1=O,H37Rv,MIC,BACTEC,,,,≥12.8 µg/mL
CCCCCCCCCCOc1nc(N)nc2c1ncn2CC(=O)N[C@@H](C)C(=O)OC,H37Rv,inhibition,BACTEC,,,6.25 µg/mL,0%
Cc1nc2scc(-c3ccco3)c2c(=O)n1/N=C/c1ccc([N+](=O)[O-])cc1,CNCTC MY331/88,MIC,,,,,6 µM
COc1ccc2c(c1OC)C(CC(C)=O)N1CCc3cc4c(cc3C1=C2)OCO4,H37Rv,MIC,broth dilution / turbidity,,,,16 µg/mL
COc1cc2c(c3c1CCC(C)(C)O3)Cc1c(cc(OC)c(OC)c1CCC(C)(C)O)O2,H37Rv,MIC,BACTEC,,,,≥12.5 µg/mL
Cc1ccc2c(c1)c1c3n2CCN(CC(O)CN)C3CCC1,H37Rv,MIC,,,,,32 µg/mL
COc1cc(OC)c2[nH]c3c(c(=O)c2c1)C(=O)c1[nH]c2c(OC)cc(OC)cc2c(=O)c1C3=O,H37Rv,MIC bound,BACTEC,,,,>12.5 µg/mL
Cc1cn2c(C(=O)NCc3ccc(S(F)(F)(F)(F)F)cc3)c(C)nc2s1,H37Rv,MIC,low oxygen,,,,83 µM
O=C(/C=C/c1ccccc1)c1ccc(O)cc1,H37Rv,MIC,MTT,7 d,,,32 µg/mL
CCC(C)[C@H](NC(=O)CCC(C)[C@H]1CCC2C3CCC4C[C@H](O)CC[C@]4(C)C3C[C@H](O)[C@@]21C)C(=O)OCc1cn(CC2OC(n3cnc4c(N)ncnc43)[C@@H]3OC(C)(C)O[C@H]23)nn1,H37Rv,MIC,resazurin,,,,14.26 µM
CCCCC(O)CN1CCC(COc2ccc(C(=O)c3ccc(Cl)cc3)c(Cl)c2)CC1,,MIC,resazurin,,,,6.25 µg/mL
C=C(C)C1CC2=C(O1)C(=O)c1ccccc1C2=O,H37Rv,MIC,resazurin,,VERO,,6.25 µg/mL
COc1ccc2c(Cc3ccc(F)cc3)c3[n+](cc2c1OC)CCc1cc2c(cc1-3)OCO2,H37Rv,MIC,broth dilution / turbidity,,,,8 µg/mL
Cc1ccc(C(=O)/C=C/c2ccccc2)cc1,H37Rv,MIC,MTT,7 d,,,32 µg/mL
Clc1ccc(Oc2ncnc3nc[nH]c23)cc1,H37Rv,inhibition,BACTEC,,,6.25 µg/mL,0%
O=C(CSc1nc2ccccc2c(=O)n1-c1ccccc1)N=Nc1c(O)[nH]c2ccc(Br)cc12,H37Rv,MIC,,,,,>12.5 µg/mL
CCOC(=O)/C=C/c1ccc(OC)cc1,BTB09-157,MIC,resazurin,,,,242 µM
Cc1ccc2nc(C)c(C(=O)NCc3ccc(S(F)(F)(F)(F)F)cc3)n2c1,H37Rv,MIC,low oxygen,,,,0.62 µM
CCC(C)[C@H](NC(=O)CCC(C)[C@H]1CCC2C3C(C[C@H](O)[C@@]21C)[C@@]1(C)CC[C@@H](O)CC1C[C@H]3O)C(=O)OCc1cn(CC2OC(n3ccc(=O)[nH]c3=O)[C@@H]3OC(C)(C)O[C@H]23)nn1,H37Rv,MIC,resazurin,,,,7.19 µM
CC(=O)NS(=O)(=O)c1ccc(N=NC2C(=O)N(C(=O)c3cccnc3)N=C2C)cc1,H37Rv,inhibition,BACTEC,,,12.8 µg/mL,4%
COc1ccc(C(=O)/C=C/c2ccccc2Cl)c(F)c1,H37Rv,MIC,MTT,14 d,,,32 µg/mL
COc1ccc2c(CC=C(C)C)c3[n+](cc2c1OC)CCc1cc2c(cc1-3)OCO2,H37Rv,MIC,broth dilution / turbidity,,,,4 µg/mL
C/C=C/C(=O)NCC(C(C)C)/[N+]([O-])=N/O,H37Rv,inhibition,BACTEC,,,12.5 µg/mL,2%
CC(CCC(=O)N[C@@H](C)C(=O)OCc1cn(CC2OC(n3cnc4c(N)ncnc43)[C@@H]3OC(C)(C)O[C@H]23)nn1)[C@H]1CCC2C3CCC4C[C@H](O)CC[C@]4(C)C3C[C@H](O)[C@@]21C,H37Rv,MIC,resazurin,,,,14.99 µM
CC(C)=CCC/C(C)=C/CNCCNCCC12OC3(CCNCCNC/C=C(\C)CCC=C(C)C)C4C5CC(C6C5C3C61)C42,H37Rv,MIC,BACTEC,,,,1 µM
CSC(SSC(S)C(N)=O)C(N)=O,H37Rv,MIC,,,,,60 µM
CC[C@@H](CO)NCCN[C@@H](CC)CO,H37Rv,MIC,resazurin,,,,7.63 µM
CCc1c(Cl)c(OCCCCCCCOCCn2cc(CN3CCN(/N=C/c4c5c(O)c6c(O)c(C)c7c(c6c4O)C(=O)[C@@](C)(O/C=C/[C@H](OC)[C@@H](C)[C@@H](OC(C)=O)[C@H](C)[C@H](O)[C@H](C)[C@@H](O)[C@@H](C)/C=C/C=C(/C)C(=O)N5)O7)CC3)nn2)c(Cl)c(O)c1C(=O)OC1C(C)OC(OC/C2=C\C=C\C[C@H](O)/C(C)=C/[C@H](CC)[C@H](OC3OC(C)(C)C(OC(=O)C(C)C)C(O)C3O)/C(C)=C/C(C)=C/C[C@@H]([C@@H](C)O)OC2=O)C(OC)C1O,H37Ra,MIC,visual reading,,,,0.5 µg/mL
O=C(Nc1ncc([N+](=O)[O-])s1)c1cccnc1,TAC-R,MIC,,,,,12.5 µg/mL
Cc1ccc2c(c1)c1c3n2CCN(CC(O)CNCc2ccccc2)C3CCC1,H37Rv,MIC,,,,,4 µg/mL
CCOC(=O)/C(C#N)=C/c1c(-c2ccccc2)nn2ccccc12,H37Rv,MIC bound,resazurin,,,,>6.25 µg/mL
CCc1nc2ccc(Cl)cn2c1C(=O)NCc1ccc(N2CCC(c3ccc(OC(F)(F)F)cc3)CC2)cc1,H37Rv,MIC,low oxygen,,,,1.3 µM
CO[C@H]1/C=C/O[C@@]2(C)Oc3c(C)c(O)c4c(O)c5nc(ncc5c(O)c4c3C2=O)/C(C)=C\C=C\[C@H](C)[C@H](O)[C@@H](C)[C@@H](O)[C@@H](C)[C@H](OC(C)=O)[C@@H]1C,H37Rv,MIC,,,,,<0.03 µg/mL
CC(=O)OCC1OC(OC(C)=O)C(NS(=O)(=O)c2ccc(C)cc2)C(OC(C)=O)C1OC(C)=O,H37Rv,inhibition,BACTEC,,,12.5 µg/mL,0%
Cc1nc2scc(-c3ccco3)c2c(=O)n1/N=C/c1ccc(F)cc1,CNCTC MY331/88,MIC,,,,,10 µM
O=C(NCCNC(=O)c1cccnc1)c1cccnc1,H37Rv,inhibition,BACTEC,,,12.5 µg/mL,0%
C[C@@H]1C(NC(=O)c2cc3c(Cl)cc(Cl)cc3[nH]2)C[C@H]2C[C@@H]1C2(C)C,KZN494,MIC,resazurin / fluorescence,multidrug-resistant,,,0.0156 µM
CC1(C)C(=O)CCC(=O)C(C)(C)C2=CC=C(O2)C(C)(C)C(=O)CCC(=O)C(C)(C)C2=CC=C1O2,H37Rv,MIC bound,BACTEC,,,,>12.5 µg/mL
O=C(/C=C/c1c(F)cccc1Cl)c1ccccc1,H37Rv,MIC,MTT,,,,32 µg/mL
COc1ccc(/C=N/Nc2nnc3c4cccnc4c4ccccc4c3n2)cc1OC,H37Rv,inhibition,BACTEC,,,12.5 µg/mL,15%
CC(CCC(=O)N[C@@H](C)C(=O)OCc1cn(CC2OC(n3ccc(=O)[nH]c3=O)[C@@H]3OC(C)(C)O[C@H]23)nn1)[C@H]1CCC2C3CCC4C[C@H](O)CC[C@]4(C)C3C[C@H](O)[C@@]21C,H37Rv,MIC,resazurin,,,,15.41 µM

For reference, 5 entries again:

| compound | strain | endpoint | read by | setting | cell line | dose | result |
|---|---|---|---|---|---|---|---|
| Cc1cnc(NC(=S)Nc2ncc(C3CCC3)o2)cc1C | H37Rv | MIC | agar |  |  |  | 0.62 µM |
| Cc1ccc2c(c1)c1c3n2CCN(CC(O)CNCCCN(C)C)C3CCC1 | H37Rv | MIC |  |  |  |  | 64 µg/mL |
| CC(CCC(=O)N[C@@H](C)C(=O)OCc1cn(CC2OC(n3ccc(=O)[nH]c3=O)[C@@H]3OC(C)(C)O[C@H]23)nn1)[C@H]1CCC2C3CCC4C[C@H](O)CC[C@]4(C)C3C[C@H](O)[C@@]21C | H37Rv | MIC | resazurin |  |  |  | 15.41 µM |
| CC(=O)OCC1OC(OC(C)=O)C(NS(=O)(=O)c2ccc(C)cc2)C(OC(C)=O)C1OC(C)=O | H37Rv | inhibition | BACTEC |  |  | 12.5 µg/mL | 0% |
| COc1cc(C=CC(=NNC(N)=S)c2sc(NNC(C)=O)nc2C)ccc1O | H37Rv | inhibition | resazurin |  |  | 6.25 µg/mL | 35% |